Target: PRC-1 (Pseudomonas wenzhouensis, UniProt Z9ZEF5EQX5)
Test: initial-rate beta-lactam hydrolysis, UV-VIS spectrophotometry
Type: biochemical
Settings: read-out: Km or Ki (μM)^a; 10 mM phosphate pH 7.4, 37°C

Sequences of proteins named here, by UniProt entry; tags and fusion partners are left off. Residues count along the entry.
UniProt Z9ZEF5EQX5, 23-379 limits assumed: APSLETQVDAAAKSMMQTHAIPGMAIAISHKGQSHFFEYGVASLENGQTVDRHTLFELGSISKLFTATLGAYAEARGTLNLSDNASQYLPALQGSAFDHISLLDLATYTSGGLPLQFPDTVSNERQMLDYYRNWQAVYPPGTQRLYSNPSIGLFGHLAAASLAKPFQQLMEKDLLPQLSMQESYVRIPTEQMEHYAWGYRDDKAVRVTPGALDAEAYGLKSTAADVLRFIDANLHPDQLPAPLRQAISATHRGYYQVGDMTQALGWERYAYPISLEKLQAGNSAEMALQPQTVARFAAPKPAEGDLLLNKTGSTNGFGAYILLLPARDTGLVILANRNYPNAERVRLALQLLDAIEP

With CC1(C)S[C@@H]2[C@H](NC(=O)[C@H](N)c3ccccc3)C(=O)N2[C@H]1C(=O)O as the compound, how does the Km read?
The Km was 65 µM.

From paper PMC8719060, “Characterization of a Novel Chromosome-Encoded AmpC β-Lactamase Gene, blaPRC–1, in an Isolate of a Newly Classified Pseudomonas Species, Pseudomonas wenzhouensis A20, From Animal Farm Sewage” (Frontiers in Microbiology, 2021)
